According to the supplement of paper PMC3578754:
Fold change is the IC50 on the isolate divided by the IC50 on a reference virus; 1 = unchanged, higher = more resistant. Changes are given against the subtype B consensus. No active / inactive call. The values were gathered from many studies (numbered anew) with different assays, which the source does not name. Most viruses are clinical isolates; some are laboratory strains or clones with known resistance changes. Isolates with mixed residues are left out; stretches that were not sequenced show no change. Round top values that many isolates share are read here as limits; other very high values and 0.1 may be limits too.

How the values were obtained:
Assay in all cases: fold change of IC50 against reference virus; higher = more resistant
[1] = compound: O=c1[nH]cnc2c1ncn2[C@H]1CC[C@@H](CO)O1 [didanosine]
Procedure: (§1)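 Cell-culture drug susceptibility tests of virus bearing the reverse transcriptase of each isolate, gathered from many studies.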

[2] = compound: Cc1ccnc2c1NC(=O)c1cccnc1N2C1CC1 [nevirapine]
Procedure: as §1

[3] = compound: Cc1cn([C@H]2C[C@H](N=[N+]=[N-])[C@@H](CO)O2)c(=O)[nH]c1=O [zidovudine]
Procedure: as §1

## HIV-1 isolate 943 (reverse transcriptase changes: L74V L100I K102Q S162C K277R I293V R358K V435I S468P K550G, study 16)
[1]
  fold change of IC50 against reference virus: 4
[2]
  fold change of IC50 against reference virus: 2

## HIV-1 isolate 157 (reverse transcriptase changes: M41L K122E F214L T215Y A272P K277R M357T A376T A400T N447S D460N S468T S519N, study 13)
[1]
  fold change of IC50 against reference virus: 1.1
[3]
  fold change of IC50 against reference virus: 70
[2]
  fold change of IC50 against reference virus: 1

## HIV-1 isolate 583 (reverse transcriptase changes: L74V K122E F214L A272P K277R M357T A376T A400T N447S D460N S468T S519N, study 13)
[1]
  fold change of IC50 against reference virus: 8
[3]
  fold change of IC50 against reference virus: 2
[2]
  fold change of IC50 against reference virus: 1

## HIV-1 isolate 991 (reverse transcriptase changes: K122E F214L A272P K277R A376T A400T D460N S468T H483Y K512Q S519N, study 72)
[1]
  fold change of IC50 against reference virus: 1
[3]
  fold change of IC50 against reference virus: 1
[2]
  fold change of IC50 against reference virus: 1

## HIV-1 isolate 701 (reverse transcriptase changes: D67N K70R K122E F214L T215Y K219Q A272P K277R M357T A376T A400T N447S D460N S468T S519N, study 13)
[1]
  fold change of IC50 against reference virus: 1.4
[3]
  fold change of IC50 against reference virus: 150
[2]
  fold change of IC50 against reference virus: 1

## HIV-1 isolate 122 (reverse transcriptase changes: L74V K102Q K103N S162C K277R I293V R358K V435I S468P K550G, study 16)
[1]
  fold change of IC50 against reference virus: 8
[2]
  fold change of IC50 against reference virus: 8

## HIV-1 isolate 20 (reverse transcriptase changes: V35T E36A T39E S48T V60I K122E D123G I135T S162A K173A D177E T200A Q207E R211K, study 99)
[1]
  fold change of IC50 against reference virus: 1.1
[3]
  fold change of IC50 against reference virus: 1
[2]
  fold change of IC50 against reference virus: 1

## HIV-1 isolate 526 (reverse transcriptase changes: L74V K102Q K103N S162C T215Y K219Q K277R I293V R358K V435I S468P K550G, study 45)
[1]
  fold change of IC50 against reference virus: 8
[3]
  fold change of IC50 against reference virus: 4
[2]
  fold change of IC50 against reference virus: 30

## HIV-1 isolate 190 (reverse transcriptase changes: L74V K102Q K103N S162C T215Y K277R I293V R358K V435I S468P K550G, study 45)
[1]
  fold change of IC50 against reference virus: 8
[3]
  fold change of IC50 against reference virus: 2000
[2]
  fold change of IC50 against reference virus: 30

## HIV-1 isolate 805 (reverse transcriptase changes: V35T T39E S48T K122E D123G K166R K173A Q174E T200A Q207E V245Q, study 99)
[1]
  fold change of IC50 against reference virus: 0.9
[3]
  fold change of IC50 against reference virus: 1
[2]
  fold change of IC50 against reference virus: 4

## HIV-1 isolate 1064 (reverse transcriptase changes: V75I F77L K102Q F116Y Q151M S162C Y181C K277R I293V R358K V435I S468P K550G, study 128)
[1]
  fold change of IC50 against reference virus: 17
[3]
  fold change of IC50 against reference virus: 200
[2]
  fold change of IC50 against reference virus: 200

## HIV-1 isolate 1642 (reverse transcriptase changes: L74V A98G K102Q S162C K277R I293V R358K V435I S468P K550G, study 16)
[1]
  fold change of IC50 against reference virus: 8
[2]
  fold change of IC50 against reference virus: 8

## HIV-1 isolate 1041 (reverse transcriptase changes: V35T E36A T39E S48T K122E D123G S162A K173A D177E T200A Q207E V245Q, study 99)
[1]
  fold change of IC50 against reference virus: 1.1
[3]
  fold change of IC50 against reference virus: 1
[2]
  fold change of IC50 against reference virus: 1

## HIV-1 isolate 1463 (reverse transcriptase changes: V35K T39E S48T V60I T139A K173T D177E I178M G196E T200A Q207E, study 99)
[1]
  fold change of IC50 against reference virus: 1.2
[3]
  fold change of IC50 against reference virus: 1
[2]
  fold change of IC50 against reference virus: 2

## HIV-1 isolate 908 (reverse transcriptase changes: K102Q S162C K277R I293V R358K V435I S468P K550G, study 16)
[1]
  fold change of IC50 against reference virus: 1
[3]
  fold change of IC50 against reference virus: 1
[2]
  fold change of IC50 against reference virus: 1

## HIV-1 isolate 22 (reverse transcriptase changes: L74V K102Q S162C K277R I293V R358K V435I S468P K550G, study 16)
[1]
  fold change of IC50 against reference virus: 4
[2]
  fold change of IC50 against reference virus: 1

## HIV-1 isolate 1480 (reverse transcriptase changes: M41L L74V K122E F214L T215Y A272P K277R M357T A376T A400T N447S D460N S468T S519N, study 13)
[1]
  fold change of IC50 against reference virus: 7.1
[3]
  fold change of IC50 against reference virus: 2
[2]
  fold change of IC50 against reference virus: 1

## HIV-1 isolate 994 (reverse transcriptase changes: K122E Y181C F214L A272P K277R M357T A376T A400T N447S D460N S468T S519N, study 13)
[1]
  fold change of IC50 against reference virus: 0.9
[3]
  fold change of IC50 against reference virus: 1
[2]
  fold change of IC50 against reference virus: 240

## HIV-1 isolate 69 (reverse transcriptase changes: L74V K102Q S162C Y181C K277R I293V R358K V435I S468P K550G, study 16)
[1]
  fold change of IC50 against reference virus: 4
[2]
  fold change of IC50 against reference virus: 8

## HIV-1 isolate 1126 (reverse transcriptase changes: L74V K101E K102Q S162C K277R I293V R358K V435I S468P K550G, study 16)
[1]
  fold change of IC50 against reference virus: 4
[2]
  fold change of IC50 against reference virus: 4

## HIV-1 isolate 684 (reverse transcriptase changes: D67N K70R K122E Y181C F214L T215Y K219Q A272P K277R M357T A376T A400T N447S D460N S468T S519N, study 13)
[1]
  fold change of IC50 against reference virus: 1
[3]
  fold change of IC50 against reference virus: 5
[2]
  fold change of IC50 against reference virus: 112

## HIV-1 isolate 1284 (reverse transcriptase changes: K102Q S162C K277R I293V R358K V435I S468P K550G, study 45)
[1]
  fold change of IC50 against reference virus: 1
[3]
  fold change of IC50 against reference virus: 1
[2]
  fold change of IC50 against reference virus: 1

## HIV-1 isolate 600 (reverse transcriptase changes: L74V K102Q S162C T215Y, study 45)
[1]
  fold change of IC50 against reference virus: 8
[3]
  fold change of IC50 against reference virus: 1
[2]
  fold change of IC50 against reference virus: 1

## HIV-1 isolate 1535 (reverse transcriptase changes: L74V K102Q S162C Y181C T215Y K277R I293V R358K V435I S468P K550G, study 45)
[1]
  fold change of IC50 against reference virus: 8
[3]
  fold change of IC50 against reference virus: 4
[2]
  fold change of IC50 against reference virus: 30

## HIV-1 isolate 347 (reverse transcriptase changes: M41L K122E Y181C F214L T215Y A272P K277R M357T A376T A400T N447S D460N S468T S519N, study 13)
[1]
  fold change of IC50 against reference virus: 0.4
[3]
  fold change of IC50 against reference virus: 2
[2]
  fold change of IC50 against reference virus: 200

## HIV-1 isolate 1539 (reverse transcriptase changes: M41L L74V K122E Y181C F214L T215Y A272P K277R M357T A376T A400T N447S D460N S468T S519N, study 17)
[1]
  fold change of IC50 against reference virus: 4.5
[3]
  fold change of IC50 against reference virus: 7
[2]
  fold change of IC50 against reference virus: 110

## HIV-1 isolate 774 (reverse transcriptase changes: M41L L74V K122E F214L T215Y A272P K277R M357T A376T A400T N447S D460N S468T S519N, study 17)
[1]
  fold change of IC50 against reference virus: 8.9
[3]
  fold change of IC50 against reference virus: 33
[2]
  fold change of IC50 against reference virus: 1

## HIV-1 isolate 853 (reverse transcriptase changes: L74V K122E Y181C F214L A272P K277R M357T A376T A400T N447S D460N S468T S519N, study 13)
[1]
  fold change of IC50 against reference virus: 6.4
[3]
  fold change of IC50 against reference virus: 2
[2]
  fold change of IC50 against reference virus: 80

## HIV-1 isolate 1007 (reverse transcriptase changes: L74V K102Q V106A S162C T215Y K277R I293V R358K V435I S468P K550G, study 45)
[1]
  fold change of IC50 against reference virus: 8
[3]
  fold change of IC50 against reference virus: 2000
[2]
  fold change of IC50 against reference virus: 30
